What was measured:
Type in all cases: functional
[1] = test system: Escherichia coli; assay: Antimicrobial activity against Escherichia coli EPI300 Irk1224 type 1 mutant harboring beta-lactamase CTX-M-3 gene by agar dilution method
[2] = test system: Escherichia coli; assay: Antimicrobial activity against Escherichia coli EPI300 harboring GM2995 pCC1-1224 carrying CTX-M-3 beta-lactamase gene from by agar dilution method
[3] = test system: Escherichia coli; assay: Antimicrobial activity against Escherichia coli EPI300 harboring GM2995 pCC1 carrying beta-lactamase CTX-M-3 gene by agar dilution method

Measured: MIC

CO/N=C(\C(=O)N[C@@H]1C(=O)N2C(C(=O)O)=C(COC(C)=O)CS[C@H]12)c1csc(N)n1 [CEFOTAXIME]
8 µg/mL: [1] | [2] | [3]

— ChEMBL document CHEMBL1255295, “Convergent in vivo and in vitro selection of ceftazidime resistance mutations at position 167 of CTX-M-3 beta-lactamase in hypermutable Escherichia coli strains” (2008)
